Measured values from several laboratories, pooled; numbers as filed in NIAID ChemDB.

All rows: whole-cell or culture tests; species: Mycobacterium tuberculosis

An empty or dashed field is not shown. Percent inhibition refers to the dose given; in toxicity tests it is the harm to the cells. Rows are shuffled and stem from different studies. MIC bound: limit read from a one-dose screen.

SMILES,measure,strain or isolate,changes,read by,tested at,value
NNC(=O)c1ccncc1,MIC,PR1282,,,,0.08 µg/mL
CCCCSCCOCCOc1c(Cl)cc(Cl)c(Cl)c1Cl,MIC,H37Rv,,,,25 µg/mL
O=c1oc2ccc([N+](=O)[O-])cc2c(=O)n1-c1cccc([N+](=O)[O-])c1,MIC,CNCTC MY331/88,,,,125 µM
CC1COc2c(N3CCN(C)CC3)c(F)cc3c(=O)c(C(=O)O)cn1c23,MIC,SMI 19,,agar,,0.5 µg/mL
CO[C@H]1/C=C/O[C@@]2(C)Oc3c(C)c(O)c4c(O)c(c(/C=N/N5CCN(C)CC5)c(O)c4c3C2=O)NC(=O)/C(C)=C\C=C\[C@H](C)[C@H](O)[C@@H](C)[C@@H](O)[C@@H](C)[C@H](OC(C)=O)[C@@H]1C,MIC,104396,,,,≥2 µg/mL
CO/C(C)=C1/NC(=O)[C@H]([C@@H](C)O)NC(=O)c2csc(n2)-c2cc(O)c(-c3nc(C(=O)NNC(=O)c4cc(-c5ccco5)[nH]n4)cs3)nc2-c2csc(n2)[C@@H]2COC(=O)c3c4c5c(cccc5n3O)COC(=O)[C@@H](O[C@H]3C[C@](C)(O)[C@H](N(C)C)[C@H](C)O3)[C@@H](OC4)[C@H](NC(=O)c3csc1n3)c1nc(cs1)C(=O)N2,MIC,H37Rv,,broth dilution,,>100 µM
NNC(=O)c1ccncc1,MIC,9135,,,,≥0.2 µg/mL
C[C@H]1COc2c(N3CCN(C)CC3)c(F)cc3c(=O)c(C(=O)O)cn1c23,MIC,Isolate 11,,,,1 µg/mL
Fc1ccc(NC(=S)SCc2ccc(Cl)c(Cl)c2)cc1,inhibition,H37Rv,,BACTEC,128 µg/mL,100%
CO[C@H]1/C=C/O[C@@]2(C)Oc3c(C)c(O)c4c(O)c(c(/C=N/N5CCN(C6CCCC6)CC5)c(O)c4c3C2=O)NC(=O)/C(C)=C\C=C\[C@H](C)[C@H](O)[C@@H](C)[C@@H](O)[C@@H](C)[C@H](OC(C)=O)[C@@H]1C,MIC,Isolate 900216 drug-susceptible,,,,0.125 µg/mL
CCCCCc1ccc(OC(C)C(=O)Nc2ccc(NC(=O)CC(=O)c3ccccc3OC)cc2)cc1,MIC,H37Rv,,,,50 µg/mL
COc1ccc(-n2c(=O)oc3ccc([N+](=O)[O-])cc3c2=O)cc1,MIC,CNCTC MY331/88,,,,125 µM
CO[C@H]1/C=C/O[C@@]2(C)Oc3c(C)c(O)c4c(O)c(c5c(c4c3C2=O)NC2(CCN(CC(C)C)CC2)N=5)=NC(=O)/C(C)=C\C=C\[C@H](C)[C@H](O)[C@@H](C)[C@@H](O)[C@@H](C)[C@H](OC(C)=O)[C@@H]1C,MBC,2257 (rifampicin-susceptible),,,,0.5 µg/mL
CC(Oc1ccc(C(C)(C)C)cc1)C(=O)N(C)c1cccc(N)c1,MIC,H37Rv,,,,>100 µg/mL
Cc1cc(NC(=O)SCCOC(=O)COc2ccc(Cl)cc2)ccc1Cl,MIC bound,H37Rv,,BACTEC,,>12.5 µg/mL
Clc1ccc(Cl)s1,MIC,H37Rv,,,,100 µg/mL
CO[C@H]1/C=C/O[C@@]2(C)Oc3c(C)c(O)c4c(O)c(c(/C=N/N5CCN(C)CC5)c(O)c4c3C2=O)NC(=O)/C(C)=C\C=C\[C@H](C)[C@H](O)[C@@H](C)[C@@H](O)[C@@H](C)[C@H](OC(C)=O)[C@@H]1C,MIC,Clinical isolate 12850,,broth dilution,,≤0.1 µM
O=C(C[n+]1ccccc1)c1ccc(O)c(I)c1.[I-],MIC,H37Rv,,,,25 µg/mL
CCCCCCCCCCCNCCNCCC,MIC,,,,,25 µM
ClCCN1CCOCC1,MIC,H37Rv,,,,>100 µg/mL
C[C@H]1COc2c(N3CCN(C)CC3)c(F)cc3c(=O)c(C(=O)O)cn1c23,MIC,CSU15,,,,≤0.125 µg/mL
CN[C@@H]1[C@H](O[C@H]2[C@H](O[C@H]3[C@H](O)[C@@H](O)[C@H](N=C(N)N)[C@@H](O)[C@@H]3N=C(N)N)O[C@@H](C)[C@]2(O)C=O)O[C@@H](CO)[C@H](O)[C@H]1O,MIC,Isolate 5,,,,16 µg/mL
OC[C@H](Cc1ccc(Cl)cc1)NCCNCCc1ccc(Cl)cc1Cl,MIC,,,,,25 µM
O=c1oc2cc(Cl)ccc2c(=O)n1-c1ccccc1,MIC,CNCTC MY331/88,,,,8 µM
CC(Cc1c[nH]c2ccccc12)NCCNC1CCCC(C)C1C,MIC,,,,,50 µM
CO[C@H]1/C=C/O[C@@]2(C)Oc3c(C)c(O)c4c(O)c(c(/C=N/N5CCN(C)CC5)c(O)c4c3C2=O)NC(=O)/C(C)=C\C=C\[C@H](C)[C@H](O)[C@@H](C)[C@@H](O)[C@@H](C)[C@H](OC(C)=O)[C@@H]1C,MIC,Isolate 1,,,,16 µg/mL
NNC(=O)c1ccncc1,MIC,Clinical isolate 565,Multidrug-resistant,broth dilution,,>10 µM
CCOC(=O)C(Br)C(Br)C(=O)OCC,MIC,H37Rv,,,,100 µg/mL
CCC(C)(C)NCCNCc1ccc(OC)c(OC)c1,MIC,,,,,25 µM
Clc1ncc(Br)c2ccccc12,MIC,H37Rv,,,,50 µg/mL
C[C@@H]1CN(c2c(F)c(N)c3c(=O)c(C(=O)O)cn(C4CC4)c3c2F)C[C@H](C)N1,MIC,Strain 24,,,,0.125 µg/mL
NC(=O)c1cnccn1,MIC,Isolate 11041 monodrug-resistant,,,,>300 µg/mL
OCc1ccccc1Sc1ccccc1CNCCNCc1ccc2c(c1)OCO2,MIC,,,,,50 µM
Cc1cc(C)c(CN)c(C)c1.Cl,MIC,H37Rv,,,,>100 µg/mL
CC1CN(c2c(F)cc3c(=O)c(C(=O)O)cn(C4CC4)c3c2F)CCN1,MIC,CSU11,,,,0.25 µg/mL
Nc1ccc(C(=O)C(O)c2ccc(N)cc2)cc1,MIC,H37Rv,,,,>100 µg/mL
CO[C@H]1/C=C/O[C@@]2(C)Oc3c(C)c(O)c4c(=O)c(c5oc6cc(N7CCN(CC(C)C)CC7)cc(=O)c6nc5c4c3=C2O)NC(=O)/C(C)=C\C=C\[C@H](C)[C@H](O)[C@@H](C)[C@@H](O)[C@@H](C)[C@H](OC(C)=O)[C@@H]1C,MIC,TN635,,,,>32 µg/mL
O=C1c2ccccc2C(=O)N1CCCl,MIC,H37Rv,,,,>100 µg/mL
CC=CCOc1cc(NC(=S)OC(C)C)ccc1Cl,inhibition,H37Rv,,BACTEC,12.5 µg/mL,95%
Nc1cnccc1C(=O)O,MIC,H37Rv,,,,>100 µg/mL
C=C(NC(=O)c1csc(-c2nc3c(cc2O)-c2nc(cs2)C(=O)N[C@@H]([C@@H](C)O)C(=O)N/C(=C(\C)OC)c2nc(cs2)C(=O)N[C@@H]2c4nc(cs4)C(=O)N[C@@H](COC(=O)c4c5c6c(cccc6n4O)COC(=O)[C@@H](O[C@H]4C[C@](C)(O)[C@H](N(C)C)[C@H](C)O4)[C@H]2OC5)c2nc-3cs2)n1)C(N)=O,MIC,H37Rv,,broth dilution,,≤2.5 µM
CCOc1ccccc1CNCCNCCc1ccccc1Cl,MIC,,,,,25 µM
O=C1c2c(Cl)ccc(Cl)c2C(=O)c2c(Cl)ccc(Cl)c21,MIC,H37Rv,,,,100 µg/mL
CCCCC(CC)CN1CN(CC(CC)CCCC)CC(C)(NCCN[C@H](CO)CCSC)C1,MIC,,,,,50 µM
O=[N+]([O-])c1cccc(C=NCC(O)CN=Cc2cccc([N+](=O)[O-])c2)c1,MIC,H37Rv,,,,100 µg/mL
NNC(=O)c1ccncc1,MIC,CSU27,,,,≤0.125 µg/mL
C=CC1CN2CCC1CC2C(O)c1ccnc2ccc(OCCO)cc12.Cl,MIC,H37Rv,,,,>100 µg/mL
Cc1ccc(-n2c(=O)oc3ccc(F)cc3c2=O)cc1,MIC,CNCTC MY331/88,,,,31 µM
NC(=S)C1CC=CCC1,MIC,H37Rv,,,,>100 µg/mL
Clc1ccc(CCNCCNCCC(c2ccccc2)c2ccccc2)c(Cl)c1,MIC,,,,,12.5 µM
CO/C(C)=C1/NC(=O)[C@H]([C@@H](C)O)NC(=O)c2csc(n2)-c2cc(O)c(-c3nc(C(=O)NCCCN4CCOCC4)cs3)nc2-c2csc(n2)[C@@H]2COC(=O)c3c4c5c(cccc5n3O)COC(=O)[C@@H](O[C@H]3C[C@](C)(O)[C@H](N(C)C)[C@H](C)O3)[C@@H](OC4)[C@H](NC(=O)c3csc1n3)c1nc(cs1)C(=O)N2,MIC,Clinical isolate 1868,Rifampicin- and isoniazid-resistant,broth dilution,,≤2.5 µM
C=CN1C(=O)CCC1=O,MIC,H37Rv,,,,>100 µg/mL

For reference, 7 entries again:

SMILES | measure | strain or isolate | changes | read by | tested at | value
CO[C@H]1/C=C/O[C@@]2(C)Oc3c(C)c(O)c4c(O)c(c5c(c4c3C2=O)NC2(CCN(CC(C)C)CC2)N=5)=NC(=O)/C(C)=C\C=C\[C@H](C)[C@H](O)[C@@H](C)[C@@H](O)[C@@H](C)[C@H](OC(C)=O)[C@@H]1C | MBC | 2257 (rifampicin-susceptible) |  |  |  | 0.5 µg/mL
O=[N+]([O-])c1cccc(C=NCC(O)CN=Cc2cccc([N+](=O)[O-])c2)c1 | MIC | H37Rv |  |  |  | 100 µg/mL
ClCCN1CCOCC1 | MIC | H37Rv |  |  |  | >100 µg/mL
CCOC(=O)C(Br)C(Br)C(=O)OCC | MIC | H37Rv |  |  |  | 100 µg/mL
CCCCC(CC)CN1CN(CC(CC)CCCC)CC(C)(NCCN[C@H](CO)CCSC)C1 | MIC |  |  |  |  | 50 µM
CO/C(C)=C1/NC(=O)[C@H]([C@@H](C)O)NC(=O)c2csc(n2)-c2cc(O)c(-c3nc(C(=O)NCCCN4CCOCC4)cs3)nc2-c2csc(n2)[C@@H]2COC(=O)c3c4c5c(cccc5n3O)COC(=O)[C@@H](O[C@H]3C[C@](C)(O)[C@H](N(C)C)[C@H](C)O3)[C@@H](OC4)[C@H](NC(=O)c3csc1n3)c1nc(cs1)C(=O)N2 | MIC | Clinical isolate 1868 | Rifampicin- and isoniazid-resistant | broth dilution |  | ≤2.5 µM
Clc1ncc(Br)c2ccccc12 | MIC | H37Rv |  |  |  | 50 µg/mL